Test results from patent US20150218599A1, “METHODS FOR PRODUCTION OF ALCOHOLS FROM CARBOXYLIC ACIDS VIA FERMENTATION” (Cornell University, priority 2012, published 2015).
Values joined by “and” are separate entries in the source; they are usually repeats but may differ in a detail not shown here. Identical values can stand only once.

Tested on: C. ragsdalei P11
Experiment: Carboxylic acid reduction in batch cultures with constant syngas supply
Format: cell-based, Clostridium ragsdalei
Conditions: 15 mM carboxylic acid
Protocol: All chemicals were purchased from Sigma-Aldrich, St. Louis, Mo., unless stated otherwise. Bacterial strain and growth conditions. Most experiments were conducted with C. ljungdahlii ERI-2 (ATTC 55380), which has been used successfully for syngas to ethanol fermentation. Some experiments were repeated with C. ragsdalei P11 (ATTC BAA-622). Bacteria were grown anaerobically at 35° C. in medium designed for efficient syngas fermentation. This medium is mostly based on ATCC medium 1754 but contains higher concentrations of the macronutrient elements. The yeast extract concentration was 0.5 g/L or 0.0 g/L as indicated for each experiment; the concentration of MES (2-(N-morpholino)ethanesulfonic acid) was 150 mM; carboxylic acids (propionic, n-butyric, isobutyric, n-valeric or n-caproic acid) were added to final concentrations of 15 mM before adjustment of the pH to 5.5. The syngas atmosphere was a synthetic blend of 60% [vol/vol]carbon monoxide, 35% hydrogen, and 5% carbon dioxide (Airgas East, Ithaca, N.Y.). Precultures of C. ljungdahlii or C. ragsdalei were grown in 250 ml serum bottles containing 20 ml medium with 0.5 g/L or 0.0 g/L yeast extract (the latter for inoculation of experiments with no yeast extract) and syngas in the headspace at a pressure of 28 psi with finite amounts of syngas. Precultures were maintained in an active state by weekly transfer of 2% into a fresh serum bottle with a headspace of finite syngas.
Experimental setup. The experiments to determine the ability of C. ljungdahlii to reduce propionic acid, n-butyric acid, n-valeric acid, n-caproic acid, or isobutyric acid (2-methyl propionic acid) to the corresponding alcohols were performed in triplicate in 250 ml rubber-stoppered Pyrex glass bottles (Fisher Scientific, Pittsburgh, Pa.), which were used as batch systems in regards to the growth medium, but with constant syngas supply (FIG. 1A). Three stainless steel needles of different length (21 gauge, Becton Dickinson Franklin Lakes, N.J., and ColeParmer, Vernon Hills, Ill.) were punched through each rubber stopper as gas supply, vent, and sample ports. The reactors were filled with 220 mL medium containing 0.5 g/L yeast extract and one of each carboxylic acids at a concentration of 15 mM, autoclaved, and then equipped with fermentation airlocks (www.winemakingsuperstore.com) filled with 5% sulfuric acid to prevent contamination by other microbes or oxygen, and placed in a temperature-controlled recirculating water bath for mechanical agitation using a 15 multi-position IKA magnetic stirrer (Cole-Parmer Vernon Hills, Ill. 60061 USA). […]
Analytical procedures. Cell dry weight concentration in the cultures was determined through measurement of the optical density with a Milton Roy Spectronic 1201 spectrophotometer at a wavelength of 600 nm after determining a correlation coefficient of 242 mg dry weight/(L*OD600nm). The carbon content was calculated using the universal proportion of elements in microbial biomass (C5H7O2N). A gas chromatography system (HP 5890, Hewlett Packard, Palo Alto, Calif.), which was equipped with a 7673 autoinjector and flame ionization detector, was used for the quantification of carboxylic acids and alcohols. […]

Question: CCC(=O)O [propionic acid] was tested. Which “alcohol from carboxylic acid produced at end of experiment” value did it give?
Answer: 7.51 mM and 7.51 ± 2.01 mM

Question: What about the consumed carboxylic acid of the same compound?
Answer: 10.39 ± 2.05 mM

Question: What about the “final acetic acid produced at end of experiment” value of the same compound?
Answer: 39.43 ± 8.39 mM

Question: What about the “final ethanol produced at end of experiment” value of the same compound?
Answer: 48.08 ± 24.17 mM

Question: What about the “final pH” value (start pH 5.5) of the same compound?
Answer: 5.23 ± 0.15
